Article PMC6028965, “Mechanism of vaccinia viral protein B14–mediated inhibition of IκB kinase β activation” (2018)

Legend:
[1] = target: T1, GST-IKKβ-ULD-SDD (residues 307–678 of human IKKβ), human, O14920 307-678; assay: pull-down
T1 sequence: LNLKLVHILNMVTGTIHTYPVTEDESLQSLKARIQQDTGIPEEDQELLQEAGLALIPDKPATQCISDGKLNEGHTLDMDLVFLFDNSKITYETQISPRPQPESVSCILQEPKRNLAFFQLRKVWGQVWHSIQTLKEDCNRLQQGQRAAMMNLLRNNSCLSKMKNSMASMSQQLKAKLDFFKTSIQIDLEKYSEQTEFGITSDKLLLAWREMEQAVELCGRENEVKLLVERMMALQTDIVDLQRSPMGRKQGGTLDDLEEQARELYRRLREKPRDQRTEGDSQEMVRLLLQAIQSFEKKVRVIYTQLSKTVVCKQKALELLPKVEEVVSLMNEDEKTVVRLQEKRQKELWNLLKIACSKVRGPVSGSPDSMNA

[2] = target: T2, GST-IKKβ-ULD-SDD M4 mutant (residues 408–416 replaced with GGGGS), human (UniProt O14920); assay: pull-down
T2 sequence: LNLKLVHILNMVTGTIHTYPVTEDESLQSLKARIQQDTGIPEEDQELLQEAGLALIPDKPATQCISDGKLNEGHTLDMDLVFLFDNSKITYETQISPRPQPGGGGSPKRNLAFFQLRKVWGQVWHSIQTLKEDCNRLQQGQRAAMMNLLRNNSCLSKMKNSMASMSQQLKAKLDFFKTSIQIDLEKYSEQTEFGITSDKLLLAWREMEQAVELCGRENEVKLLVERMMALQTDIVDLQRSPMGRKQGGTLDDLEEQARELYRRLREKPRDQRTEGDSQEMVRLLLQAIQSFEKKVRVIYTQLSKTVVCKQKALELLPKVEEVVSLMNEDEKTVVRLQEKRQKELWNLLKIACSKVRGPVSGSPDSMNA

For untagged B14 protein, the result [1] was “binds” and the decrease in binding relative to the WT construct [2] was 60%.
